A mixed list of measured activities; the numbers were collected in NIAID ChemDB.

Common to all: whole-cell or culture tests; organism: Aspergillus niger; endpoint: zone

Zone: diameter of growth inhibition.

smiles,strain,read by,tested at,value
Cc1nc2ccccc2n(CC(=O)NN2C(=O)CSC2c2ccccc2Cl)c1=O,-,-,100 µg/mL,11 mm
CCOc1ccc(N2C(=O)N(c3ccc(Cl)c(C(F)(F)F)c3)C(=N)C2=S)cc1,-,agar diffusion / agar,5 mg/mL,17 mm
O=C(NN1C(=O)CSC1C1C(c2ccccc2)=Nc2ccccc21)N1c2ccccc2C=Cc2ccccc21,MTCC 281,agar diffusion,500 µg/mL,3 mm
CN(C)c1ccc(C=NNC(=O)c2snnc2C(F)(F)F)cc1,MTCC 1344,agar diffusion / agar,100 µg/mL,0 mm
O=C(NN=CC1C(c2ccccc2)=Nc2ccc(Cl)cc21)N1c2ccccc2C=Cc2ccccc21,MTCC 281,agar diffusion,500 µg/mL,12 mm
CS(=O)(=O)c1nc(N)c(C#N)c(-c2cccc([N+](=O)[O-])c2)n1,MTCC 282,agar diffusion,25 µg/mL,18 mm
N=C1C(=S)N(c2ccc(I)cc2)C(=O)N1c1ccc(Cl)c(C(F)(F)F)c1,-,agar diffusion / agar,5 mg/mL,0 mm
CS(=O)(=O)c1nc(N)c(C#N)c(-c2ccccc2Cl)n1,MTCC 282,agar diffusion,100 µg/mL,20 mm
O=C(NN=Cc1ccccc1)c1snnc1C(F)(F)F,MTCC 1344,agar diffusion / agar,150 µg/mL,0 mm
CSC1=NC(c2ccccc2O)C(C#N)=C(N)N1,MTCC 282,agar diffusion,25 µg/mL,14 mm
N=C1C(=S)N(c2ccccc2)C(=O)N1c1ccc(F)cc1,-,agar diffusion / agar,5 mg/mL,12 mm
CC(C)=NNC(=O)c1snnc1C(F)(F)F,MTCC 1344,agar diffusion / agar,150 µg/mL,0 mm
CC1(C)CCC2=C(C1=O)C(c1ccc(C3C4=C(CCC(C)(C)C4=O)OC4=C3C(=O)C(C)(C)CC4)cc1)C1=C(CCC(C)(C)C1=O)O2,ATCC 10949,agar diffusion,20 µg/mL,0 mm
CC(C)n1c(/C=C/C=Nn2cn[nH]c2=S)c(-c2ccc(F)cc2)c2ccccc21,-,-,200 µg/mL,10 mm
CS(=O)(=O)c1nc(N)c(C#N)c(-c2ccccc2[N+](=O)[O-])n1,MTCC 282,agar diffusion,100 µg/mL,22 mm
OC(Cn1cncn1)(Cn1cncn1)c1ccc(F)cc1F,-,agar diffusion,200 µg/mL,60 mm
Cc1nc2ccccc2n(CC(=O)NN2C(=O)CSC2c2ccc(N(C)C)cc2)c1=O,-,-,50 µg/mL,10 mm
CC1(C)CC(=O)C2=C(C1)OC1=C(C(=O)CC(C)(C)C1)C2c1ccc(C2C3=C(CC(C)(C)CC3=O)OC3=C2C(=O)CC(C)(C)C3)cc1,ATCC 10949,agar diffusion,40 µg/disc,0 mm
COc1ccc(C=NNC(=O)c2snnc2C(F)(F)F)cc1,MTCC 1344,agar diffusion / agar,150 µg/mL,0 mm
O=C1NC2(CO1)O/C(=C/c1ccc(Cl)cc1)C(=O)N2CCCNc1ccnc2cc(Cl)ccc12,-,agar diffusion,400 µg/mL,22 mm
OC(Cn1cncn1)(Cn1cncn1)c1ccc(F)cc1F,-,-,30 µg/mL,100 mm
O=C1CC(c2ccccc2)CC2=C1C(c1ccc(C3C4=C(CC(c5ccccc5)CC4=O)OC4=C3C(=O)CC(c3ccccc3)C4)cc1)C1=C(CC(c3ccccc3)CC1=O)O2,ATCC 10949,agar diffusion,20 µg/mL,0 mm
CSC1=NC(/C=C/c2ccccc2)C(C#N)=C(N)N1,MTCC 282,agar diffusion,50 µg/mL,15 mm
CC(=NNC(=O)c1snnc1C(F)(F)F)c1ccccc1,MTCC 1344,agar diffusion / agar,100 µg/mL,0 mm
Cc1ccc2c(c1)C(C1SCC(=O)N1NC(=O)N1c3ccccc3C=Cc3ccccc31)C(c1ccccc1)=N2,MTCC 281,agar diffusion,1000 µg/mL,5 mm
COc1ccc(N2C(=O)N(c3ccc(F)cc3)C(=N)C2=S)cc1,-,agar diffusion / agar,5 mg/mL,14 mm
Cc1cc(=O)oc2c(C=Nc3cccc4cccc(N=Cc5c(O)ccc6c(C)cc(=O)oc56)c34)c(O)ccc12,MTCC 1881,-,200 µg/mL,11 mm
CS(=O)(=O)c1nc(N)c(C#N)c(-c2ccccc2)n1,MTCC 282,agar diffusion,50 µg/mL,19 mm
Cc1nc2ccccc2n(CC(=O)NN2C(=O)CSC2c2ccccc2F)c1=O,-,-,50 µg/mL,9 mm
O=C1CC(c2ccccc2)CC2=C1C(c1cccc(C3C4=C(CC(c5ccccc5)CC4=O)OC4=C3C(=O)CC(c3ccccc3)C4)c1)C1=C(CC(c3ccccc3)CC1=O)O2,ATCC 10949,agar diffusion,20 µg/mL,0 mm
CSC1=NC(c2ccccc2Cl)C(C#N)=C(N)N1,MTCC 282,agar diffusion,25 µg/mL,13 mm
O=C(NN=C1CCCC1)c1snnc1C(F)(F)F,MTCC 1344,agar diffusion / agar,150 µg/mL,0 mm
N=C1O/C(=C/c2ccc(Cl)cc2)C(=O)N1CCCNc1ccnc2cc(Cl)ccc12,-,agar diffusion,400 µg/mL,38 mm
O=C1CCCC2=C1C(c1ccc(C3C4=C(CCCC4=O)OC4=C3C(=O)CCC4)cc1)C1=C(CCCC1=O)O2,ATCC 10949,agar diffusion,40 µg/disc,0 mm
CC(=NNC(=O)c1snnc1C(F)(F)F)c1ccc([N+](=O)[O-])cc1,MTCC 1344,agar diffusion / agar,150 µg/mL,0 mm
COc1ccc(C2SCC(=O)N2NC(=O)Cn2c(=O)c(C)nc3ccccc32)cc1,-,-,50 µg/mL,9 mm
CS(=O)(=O)c1nc(N)c(C#N)c(-c2ccc(Cl)cc2)n1,MTCC 282,agar diffusion,100 µg/mL,20 mm
CC(=NNC(=O)c1snnc1C(F)(F)F)c1ccccn1,MTCC 1344,agar diffusion / agar,150 µg/mL,0 mm

For reference, 3 entries again:

smiles	strain	read by	tested at	value
O=C1CCCC2=C1C(c1ccc(C3C4=C(CCCC4=O)OC4=C3C(=O)CCC4)cc1)C1=C(CCCC1=O)O2	ATCC 10949	agar diffusion	40 µg/disc	0 mm
COc1ccc(N2C(=O)N(c3ccc(F)cc3)C(=N)C2=S)cc1	-	agar diffusion / agar	5 mg/mL	14 mm
CS(=O)(=O)c1nc(N)c(C#N)c(-c2ccc(Cl)cc2)n1	MTCC 282	agar diffusion	100 µg/mL	20 mm

Rows are shuffled and stem from different studies. An empty or dashed field is not shown.